How the values were obtained:
Assay type in all cases: ADME, organism-based
Conditions in all cases: in vivo
Rattus norvegicus [1] = assay: MRT (0 to t) in Sprague-Dawley rat at 4 mg/kg, iv by LC-MS/MS analysis
Rattus norvegicus [2] = assay: Cmax in Sprague-Dawley rat at 4 mg/kg, iv by LC-MS/MS analysis; design: dose 4 mg/kg, route intravenous
Rattus norvegicus [3] = assay: Volume of distribution in Sprague-Dawley rat at 4 mg/kg, iv by LC-MS/MS analysis
Rattus norvegicus [4] = assay: Clearance in Sprague-Dawley rat at 4 mg/kg, iv by LC-MS/MS analysis
Rattus norvegicus [5] = assay: Half life in Sprague-Dawley rat at 4 mg/kg, iv by LC-MS/MS analysis
Rattus norvegicus [6] = assay: AUC (0 to t) in Sprague-Dawley rat at 4 mg/kg, iv by LC-MS/MS analysis

CC[C@H](C)[C@H](NC(=O)[C@H](Cc1ccc(O)cc1)NC(=O)[C@H](CO)NC(=O)[C@H](CCC(=O)O)NC(=O)[C@H](CCC(=O)O)NC(=O)[C@H](CC(C)C)NC(=O)[C@H](CCCCN)NC(=O)[C@H](CCCCN)NC(=O)[C@@H](NC(=O)[C@@H](NC(=O)[C@H](CCC(=O)O)NC(=O)[C@H](CCC(=O)O)NC(=O)[C@H](CC(C)C)NC(=O)[C@H](CCCCN)NC(=O)[C@H](CCCCN)NC(=O)[C@H](CCSC)NC(=O)[C@H](CCC(=O)O)NC(=O)[C@H](Cc1ccc(O)cc1)NC(=O)[C@H](CCC(=O)O)NC(=O)[C@H](CC(C)C)NC(=O)[C@H](CC(=O)O)NC(=O)[C@H](CC(C)C)NC(=O)[C@H](CC(C)C)NC(=O)[C@@H](NC(=O)[C@@H](NC(=O)[C@H](CC(N)=O)NC(=O)[C@@H](NC(=O)[C@H](CCC(N)=O)NC(=O)[C@@H](NC(=O)[C@H](CC(C)C)NC(=O)[C@H](CO)NC(C)=O)[C@@H](C)O)[C@@H](C)CC)[C@@H](C)O)[C@@H](C)O)C(C)C)C(C)C)C(=O)N[C@@H](CC(=O)O)C(=O)N[C@@H](CC(C)C)C(=O)N[C@@H](CCCCN)C(=O)N[C@@H](CCC(=O)O)C(=O)N[C@@H](CC(C)C)C(N)=O
MRT(t) (Rattus norvegicus [1]): 1.34 h | Cmax (Rattus norvegicus [2]): 17000 ng/mL | Vd (Rattus norvegicus [3]): 2.19 L/kg | clearance (Rattus norvegicus [4]): 17.3 mL/min/kg | t1/2 (Rattus norvegicus [5]): 1.54 h | AUCt (Rattus norvegicus [6]): 3350 ng·h/mL
